Anti-infective test results gathered from many reports (values: NIAID ChemDB through PubChem).

Shared fields: growth or infection tests; agent: Mycobacterium tuberculosis

Inhibition is in % at the dose shown (toxicity tests: loss of growth or viability). a–b is a range or a potency band. Rows are shuffled and stem from different studies. Blank or dashed fields: not listed here. MIC bound: limit read from a one-dose screen.

compound | strain | method | endpoint | dose | value
CC(C)(C)c1cnc(C(=O)Nc2ccc(Cl)c(Cl)c2)cn1 | H37Rv |  | inhibition | 6.25 µg/mL | 15%
O=Cc1c[nH]c2ccccc12 | H37Rv |  | MIC |  | >100 µg/mL
Cc1c(CN2CCSCC2)cc(-c2ccccc2)n1-c1ccccc1F | 103471 |  | MIC |  | 8 µg/mL
O=C(Nc1ccccc1)c1cc(Cl)ccc1O | CNCTC MY331/88 |  | MIC |  | 31 µM
Clc1ccc2nc3c(c(-c4ccccc4)c2c1)SC(c1ccccc1)C3 | H37Rv | agar | MIC |  | 16.71 µM
CC(=O)c1ccc(I)cc1 | H37Rv |  | MIC |  | >100 µg/mL
COc1cc2c(cc1OC)CN(c1nc3c(cc1[N+](=O)[O-])c(=O)c(C(=O)O)cn3C1CC1)CC2 | ATCC35801 |  | MIC |  | 0.19 µM
CC(C)[C@H]1OC(=O)[C@H](Cc2ccccc2)N(C)C(=O)[C@@H](C(C)C)OC(=O)[C@H](Cc2ccccc2)N(C)C(=O)[C@@H](C(C)C)OC(=O)[C@H](Cc2ccccc2)N(C)C1=O | H37Ra |  | MIC |  | 12.5 µg/mL
C[C@@H]1CN(c2c(F)c(N)c3c(=O)c(C(=O)O)cn(C4CC4)c3c2F)C[C@H](C)N1 | 90-0233 (INH SM-RS) |  | MIC |  | 0.1 µg/mL
Clc1ccc(C2Cc3nc4ccccc4c(-c4ccccc4)c3S2)c(Cl)c1 | H37Rv | agar | MIC |  | 3.82 µM
O=C1C=CC(=O)C=C1 | H37Ra |  | MIC |  | 25 µg/mL
CC(C(N)=S)c1nc2ncccc2[nH]1 | H37Rv |  | MIC |  | 31 µg/mL
c1cnc2n[nH]nc2c1 | H37Rv |  | MIC |  | >100 µg/mL
Cn1cccc2nc(C/C(N)=N/O)nc1-2 | H37Rv |  | MIC |  | 500 µg/mL
CCOC(=O)c1c2c3c(c(Nc4c(C)cc(C)cc4S(=O)(=O)O)ccc3n(C)c1=O)C(=O)c1ccccc1-2.N | H37Rv |  | MIC |  | >100 µg/mL
CO[C@H]1/C=C/O[C@@]2(C)Oc3c(C)c(O)c4c(=O)c(c5oc6cc(N7CCN(CC(C)C)CC7)cc(=O)c6nc5c4c3=C2O)NC(=O)/C(C)=C\C=C\[C@H](C)[C@H](O)[C@@H](C)[C@@H](O)[C@@H](C)[C@H](OC(C)=O)[C@@H]1C | CSU22 |  | MIC |  | >5 µg/mL
CC(C)[C@H]1CC[C@@H]2[C@]1(C)CCC13CC[C@](C)(O1)[C@H](CO)[C@]23O | H37Rv | resazurin | MIC |  | 100 µg/mL
OC1CCC(O)CC1 | H37Rv |  | MIC |  | >100 µg/mL
O=S(=O)(O)c1cc(N=Nc2cc(S(=O)(=O)O)c3cccnc3c2O)ccc1/C=C/c1ccc(N=Nc2cc(S(=O)(=O)O)c3cccnc3c2O)cc1S(=O)(=O)O | H37Rv | BACTEC | inhibition | 12.5 µg/mL | 0%
O=[N+]([O-])c1cccc(C2Cc3nc4ccccc4c(-c4ccccc4)c3S2)c1 | MDR | agar | MIC |  | 8.14 µM
Cc1ccc2nc3c(C)cc(=O)cc-3sc2c1 | H37Rv | BACTEC | inhibition | 12.5 µg/mL | 97%
CCN1CCCC(COC(=O)c2ccc(N)cc2)C1 | H37Rv |  | MIC |  | 100 µg/mL
CC[C@H]1OC(=O)[C@H](C)[C@@H](O[C@H]2C[C@@](C)(OC)[C@@H](O)[C@H](C)O2)[C@H](C)[C@@H](O[C@@H]2O[C@H](C)C[C@H](N(C)C)[C@H]2O)[C@](C)(OC)C[C@@H](C)C(=O)[C@H](C)[C@@H](O)[C@]1(C)O | 92-0492 MDR (INH RIF-resistant) |  | MIC |  | 10 µg/mL
CN(C(=O)CCC(=O)O)c1ccc(I)cc1 | H37Rv |  | MIC |  | >100 µg/mL
CCOc1ccc(NC(=O)C(=O)CC(=O)c2c(C)n([O-])c3ccccc3[n+]2=O)cc1 | H37Rv | resazurin | MIC bound |  | >6.25 µg/mL
CC1COc2c(N3CCN(C)CC3)c(F)cc3c(=O)c(C(=O)O)cn1c23 | H37Rv |  | MIC |  | 0.75 µg/mL
CC(CN1c2ccccc2Sc2ccc(Cl)cc21)N(C)CCCl.Cl | H37Rv | BACTEC | MIC bound |  | >12.5 µg/mL
NNC(=O)c1ccncc1 | Isolate UT2204 (katG L91R mutation) |  | MIC |  | 2 µg/mL
CC(C)[C@H]1CC[C@H]2[C@@H]3C=C[C@](C)(O)CC[C@]3(C)CC[C@]12C(=O)O | H37Rv | resazurin | MIC |  | 100 µg/mL
N#CC(c1ccccc1)C(CC(=O)c1ccccc1)c1ccccc1 | H37Rv |  | MIC |  | >100 µg/mL
COc1cc(NC(=O)c2cncc(Cl)n2)cc(OC)c1 | H37Rv |  | inhibition | 6.25 µg/mL | 11%
CC(/C(N)=N/O)c1nc2ncccc2[nH]1 | 109 |  | MIC |  | 500 µg/mL
O=C(N=Nc1c(O)n(CO)c2ccccc12)c1ccncc1 | Human sensitive isolate |  | MIC |  | 3 µg/mL
Cc1c(CN2CCSCC2)cc(-c2ccccc2Cl)n1-c1ccccc1F | 103471 |  | MIC |  | 4 µg/mL
O=C(Nc1ccccc1Br)c1cncc(Cl)n1 | H37Rv |  | inhibition | 6.25 µg/mL | 28%
CC(C)=CCC1=C(O)c2ccccc2C(=O)C1=O | H37Ra |  | MBC |  | 400 µg/mL
CC(C)[C@H]1CC[C@H]2[C@@H]3C=CC4(C)CC[C@@]3(CC[C@]12C(=O)O)CO4 | H37Rv | resazurin | MIC |  | 100 µg/mL
NC[C@H]1O[C@H](O[C@H]2[C@H](O)[C@@H](O[C@H]3O[C@H](CO)[C@@H](O)[C@H](N)[C@H]3O)[C@H](N)C[C@@H]2N)[C@H](O)[C@@H](O)[C@@H]1O | 90-0145 (drug-susceptible) |  | MIC |  | 4 µg/mL
CO[C@H]1/C=C/O[C@@]2(C)Oc3c(C)c(O)c4c(O)c(c(/C=N/N5CCN(C)CC5)c(O)c4c3C2=O)NC(=O)/C(C)=C\C=C\[C@H](C)[C@H](O)[C@@H](C)[C@@H](O)[C@@H](C)[C@H](OC(C)=O)[C@@H]1C | Erdman |  | MIC |  | 0.3 µg/mL
O=C(Nc1cccc(F)c1)c1cc([N+](=O)[O-])ccc1O | CNCTC MY331/88 |  | MIC |  | 31 µM
O=C(O)CCCc1c[nH]c2ccccc12 | H37Rv |  | MIC |  | 100 µg/mL
CC(=O)O[C@H]1C[C@H](O[C@H]2[C@@H](O)C[C@H](O[C@H]3[C@@H](O)C[C@H](O[C@H]4CC[C@@]5(C)[C@H](CC[C@@H]6[C@@H]5CC[C@]5(C)[C@@H](C7=CC(=O)OC7)[C@@H](O)C[C@]65O)C4)O[C@@H]3C)O[C@@H]2C)O[C@H](C)[C@H]1O[C@@H]1O[C@H](CO)[C@@H](O)[C@H](O)[C@H]1O | H37Rv | BACTEC | MIC |  | ≥128 µg/mL
O=C(Nc1ccccc1)c1ccccc1O | CNCTC MY331/88 |  | MIC |  | 62 µM
CCCCCc1cc(OC)c(C(=O)O)c(OC)c1 | H37Rv |  | MIC |  | >100 µg/mL
NC(=O)c1c(N)nn2c(-c3ccccc3)cc(-c3ccccc3)cc12 | H37Rv | resazurin | MIC |  | >6.25 µg/mL
O=c1cc(CCl)c2cccc(Cl)c2[nH]1 | H37Rv |  | MIC |  | 100 µg/mL
O=[N+]([O-])c1cn2c(n1)OC[C@@H](OCc1ccc(OCc3ccccc3)cc1)C2 | H37Rv-7A2 (PA-824-resistant) |  | MIC |  | >100 µM
CC(C)(C)C1(O)C=C(O)C(=O)N1c1cccnc1 | H37Rv | resazurin | MIC bound |  | >6.25 µg/mL
O=C(O)c1cn(C2CC2)c2cc(N3CCC(N4CCCCC4)CC3)c(F)cc2c1=O | ATCC35801 |  | MIC |  | 0.94 µM
O=C(Nc1ccc(Cl)cc1Cl)c1cc(Br)ccc1O | CNCTC MY331/88 |  | MIC |  | 4 µM
CCOc1ccc(NC(C)=O)cc1 | H37Ra |  | MBC |  | 3200 µg/mL
CC(C)(C)n1cc(C(=O)O)c(=O)c2cc([N+](=O)[O-])c(N3CCC(n4c(=O)[nH]c5cc(Cl)ccc54)CC3)cc21 | ATCC35801 |  | MIC |  | 1.52 µM
Clc1ccc2nc3c(c(-c4ccccc4)c2c1)SC(c1ccccc1Cl)C3 | MDR | agar | MIC |  | 1.91 µM
CN1/C(=C/C(=O)NN)N(C)c2ncccc21 | 109 |  | MIC |  | 250 µg/mL
N=C1N(c2ccccc2)C(=S)C(=Nc2ccccc2)N1c1ccccc1 | H37Rv | BACTEC | MIC bound |  | >12.5 µg/mL
O=C(Nc1ccc(Cl)c(Cl)c1)c1cncc(Cl)n1 | H37Rv |  | inhibition | 6.25 µg/mL | 61%
Cc1cc(Br)cc(Br)c1N | H37Rv |  | MIC |  | >100 µg/mL
CCC(CC)C(=O)NC(=O)NC(=O)N1CC(C)OC(C)C1 | H37Rv | BACTEC | MIC bound |  | >12.5 µg/mL
COc1ccc(CC2C3=C(CCCC3)CCN2c2cc3c(cc2[N+](=O)[O-])c(=O)c(C(=O)O)cn3C2CC2)cc1 | ATCC35801 |  | MIC |  | 6.22 µM
Cc1ccc(C)n1-c1cc2cccnc2cc1C(F)(F)F | H37Rv |  | MIC |  | >100 µg/mL
N#CC1=C(C#N)C(=O)C(Cl)=C(Cl)C1=O | H37Ra |  | MIC |  | 400 µg/mL
OCc1ccccc1O | H37Rv |  | MIC |  | 100 µg/mL
Fc1ccc(C2Cc3nc4ccc(Cl)cc4c(-c4ccccc4)c3S2)cc1 | H37Rv | agar | MIC |  | 3.98 µM
Cc1c(CN2CCN(C)CC2)cc(-c2ccccc2F)n1-c1cccc2ccccc12 | 103471 |  | MIC |  | 4 µg/mL
O=[N+]([O-])c1cn2c(n1)OC[C@@H](OCc1ccc(OC(F)(F)F)cc1)C2 | H37Rv |  | MIC |  | 0.4–0.8 µM
N#CC1c2ccccc2-c2ccccc2N1C(=O)c1ccccc1 | H37Rv | BACTEC | MIC bound |  | >12.5 µg/mL
Clc1ccc(C2Cc3nc4ccc(Cl)cc4c(-c4ccccc4)c3S2)cc1 | MDR | agar | MIC |  | 3.82 µM
Fc1ccc(NC(=S)SCc2ccco2)cc1 | H37Rv | BACTEC | MIC bound |  | >12.5 µg/mL
CC1=CC(=O)c2c(O)cccc2C1=O | H37Ra |  | MBC |  | 800 µg/mL
CC[C@@H](CO)NCCN[C@@H](CC)CO | 90-0233 (INH SM-RS) |  | MIC |  | 1 µg/mL
CNC(=O)c1nn(C)c(=O)[nH]c1=O | H37Rv | BACTEC | MIC bound |  | >12.5 µg/mL
Cc1ccc(N(C)C(=O)CCCC(=O)O)c(C)c1 | H37Rv |  | MIC |  | >100 µg/mL
CCc1ccccc1NC(=O)C(=O)C1C(=O)N(c2ccccc2)N=C1N | H37Rv | resazurin | inhibition | 6.25 µg/mL | 21%
c1ccc(-c2ccc(-c3ccccc3)c(-c3ccccc3)n2)cc1 | H37Rv |  | MIC |  | >100 µg/mL
CCC1=C(c2ccc(OC)cc2)C(C)(C)Oc2cc(O)c(CN3CCCC3)cc21 | H37Rv | BACTEC | MIC |  | 12.5 µg/mL
CC(=O)O[C@H]1C[C@@]2(C)C(=C3CC=C(C)CC[C@@]31C)CC[C@@H]2C(C)C | H37Rv | resazurin | MIC |  | 100 µg/mL
C[n+]1c(-c2ccc(/C=N\Nc3n[nH]c(=S)n3/N=C/c3ccc(-c4cn5ccsc5[n+]4C)cc3)cc2)cn2ccsc21.[Br-].[Br-] | H37Rv | BACTEC | MIC bound |  | >12.5 µg/mL
c1ccc(-c2ccccc2OCCOCCN2CCOCC2)cc1 | H37Rv |  | MIC |  | 100 µg/mL
O=C1OC2C(O1)C1(Cl)C(Cl)=C(Cl)C2(Cl)C1(Cl)Cl | H37Rv | BACTEC | inhibition | 6.25 µg/mL | 0%
Cc1c(CN2CCSCC2)cc(-c2ccccc2Cl)n1-c1ccccc1Cl | 103471 |  | MIC |  | 5 µg/mL
CCN(CCNc1ccc(C)c2sc3cc(Cl)ccc3c(=O)c12)CC(C)(C)O | H37Rv | BACTEC | MIC bound |  | >12.5 µg/mL
CCOC(=O)c1cc(I)c(N)c(I)c1 | H37Rv |  | MIC |  | >100 µg/mL
NNC(=O)c1nnsc1-c1csnn1 | H37Rv | BACTEC | MIC bound |  | >12.5 µg/mL
Cc1ccc(C)n1-c1ccc(S(N)(=O)=O)cc1 | H37Rv |  | MIC |  | 100 µg/mL
Cc1nnc2nc3c(nn12)c1ccccc1n3C | H37Rv | resazurin | MIC bound |  | >6.25 µg/mL
CC1=CCC2=C3CC[C@H](C(C)C)[C@@]3(C)CC(=O)[C@@]2(C)CC1 | H37Rv | resazurin | MIC |  | 100 µg/mL
Cc1cnc(NC(=O)c2cnccn2)s1 | H37Rv |  | inhibition | 6.25 µg/mL | 10%
CCCNCC(=O)Nc1ccc(C)c(Cl)c1 | H37Rv | BACTEC | MIC |  | >12.5 µg/mL
c1ccc(CC[n+]2ccccc2-c2ccccc2)cc1 | H37Rv |  | MIC |  | >100 µg/mL

Repeating the first 6 entries:

compound | strain | method | endpoint | dose | value
CC(C)(C)c1cnc(C(=O)Nc2ccc(Cl)c(Cl)c2)cn1 | H37Rv |  | inhibition | 6.25 µg/mL | 15%
O=Cc1c[nH]c2ccccc12 | H37Rv |  | MIC |  | >100 µg/mL
Cc1c(CN2CCSCC2)cc(-c2ccccc2)n1-c1ccccc1F | 103471 |  | MIC |  | 8 µg/mL
O=C(Nc1ccccc1)c1cc(Cl)ccc1O | CNCTC MY331/88 |  | MIC |  | 31 µM
Clc1ccc2nc3c(c(-c4ccccc4)c2c1)SC(c1ccccc1)C3 | H37Rv | agar | MIC |  | 16.71 µM
CC(=O)c1ccc(I)cc1 | H37Rv |  | MIC |  | >100 µg/mL